Measured values: publication PMC5330840

Legend:
Test in all cases: purified protein
CC(=O)O = conditions: apparent; acetyl-CoA forming direction; saturating CoA and ATP
[1] = system: CC(=O)SCCNC(=O)CCNC(=O)[C@H](O)C(C)(C)COP(=O)(O)OP(=O)(O)OC[C@H]1O[C@@H](n2cnc3c(N)ncnc32)[C@H](O)[C@@H]1OP(=O)(O)O; conditions: apparent; acetate-forming direction; saturating ADP and Pi
[2] = system: Nc1ncnc2c1ncn2[C@@H]1O[C@H](COP(=O)(O)OP(=O)(O)O)[C@@H](O)[C@H]1O; conditions: apparent; acetate-forming direction; saturating acetyl-CoA and Pi
[3] = system: CC(C)(COP(=O)(O)OP(=O)(O)OC[C@H]1O[C@@H](n2cnc3c(N)ncnc32)[C@H](O)[C@@H]1OP(=O)(O)O)[C@@H](O)C(=O)NCCC(=O)NCCS; conditions: apparent; acetyl-CoA forming direction; saturating acetate and ATP
[4] = system: Nc1ncnc2c1ncn2[C@@H]1O[C@H](COP(=O)(O)OP(=O)(O)OP(=O)(O)O)[C@@H](O)[C@H]1O; conditions: apparent; acetyl-CoA forming direction; saturating acetate and CoA
O=P(O)(O)O = conditions: apparent; acetate-forming direction; saturating acetyl-CoA and ADP

How did the Km (CC(=O)O) turn out when “Entamoeba histolytica ADP-forming acetyl-CoA synthetase (EhACD) (Entamoeba histolytica HM-1:IMSS; D674E)” was run?
The Km was 3900 ± 300 µM.

And the kcat (CC(=O)O)?
Its kcat is 50 s⁻¹.

And the kcat/Km (CC(=O)O)?
The kcat/Km was 13000 M⁻¹ s⁻¹.

What about the Km [1] of the same substance?
Its Km is 22 ± 2 µM.

What about the kcat [1] of the same substance?
Its kcat is 16 s⁻¹.

What about the kcat/Km [1] of the same substance?
Its kcat/Km is 704000 M⁻¹ s⁻¹.

What about the Km [2] of the same substance?
Its Km is 1440 ± 80 µM.

And the kcat [2]?
Its kcat is 25 s⁻¹.

And the kcat/Km [2]?
Its kcat/Km is 17000 M⁻¹ s⁻¹.

With “Entamoeba histolytica ADP-forming acetyl-CoA synthetase (EhACD) (Entamoeba histolytica HM-1:IMSS; H533A)” as the substance, how does the Km (CC(=O)O) read?
Its Km is 680 ± 100 µM.

And the kcat (CC(=O)O)?
Its kcat is 3.3 s⁻¹.

And the kcat/Km (CC(=O)O)?
The kcat/Km was 4800 M⁻¹ s⁻¹.

And the Km [1]?
Its Km is 10 ± 1 µM.

And the kcat [1]?
The kcat was 2.7 s⁻¹.

And the kcat/Km [1]?
The kcat/Km was 266000 M⁻¹ s⁻¹.

What about the Km [3] of the same substance?
The Km was 70 ± 10 µM.

And the kcat [3]?
Its kcat is 4.2 s⁻¹.

What about the kcat/Km [3] of the same substance?
The kcat/Km was 60000 M⁻¹ s⁻¹.

And the Km [2]?
Its Km is 410 ± 30 µM.

What about the kcat [2] of the same substance?
The kcat was 2.8 s⁻¹.

And the kcat/Km [2]?
The kcat/Km was 6900 M⁻¹ s⁻¹.

What about the Km [4] of the same substance?
The Km was 2200 ± 100 µM.

And the kcat [4]?
Its kcat is 3.3 s⁻¹.

And the kcat/Km [4]?
Its kcat/Km is 1600 M⁻¹ s⁻¹.

And the Km (O=P(O)(O)O)?
The Km was 750 ± 100 µM.

And the kcat (O=P(O)(O)O)?
Its kcat is 2.3 s⁻¹.

And the kcat/Km (O=P(O)(O)O)?
The kcat/Km was 3100 M⁻¹ s⁻¹.

With “Entamoeba histolytica ADP-forming acetyl-CoA synthetase (EhACD) (Entamoeba histolytica HM-1:IMSS; H533R)” as the substance, how does the Km (O=P(O)(O)O) read?
The Km was 150 ± 30 µM.

And the kcat (O=P(O)(O)O)?
The kcat was 14 s⁻¹.

And the kcat/Km (O=P(O)(O)O)?
Its kcat/Km is 95000 M⁻¹ s⁻¹.
